# Source: PubChem BioAssay AID504720 (Sanford-Burnham Center for Chemical Genomics, 2011)
# Chains of the proteins cited; added tags and fusions are not shown.
# UniProt P0AE70, whole entry, looked up: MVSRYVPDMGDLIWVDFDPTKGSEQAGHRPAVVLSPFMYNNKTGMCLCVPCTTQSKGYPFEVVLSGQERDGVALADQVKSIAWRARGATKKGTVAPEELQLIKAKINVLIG
# This is a selection; strong and weak results do not stand in their true shares. Some salts and complexes are drawn in separate pieces, as the source files them; their charges need not balance. Active and inactive are the calls of the source. Cut-off read from the data, not from the text of the source: active = activation above about 50%; inactive = the rest.
# Target: Endoribonuclease toxin MazF (Escherichia coli (strain K12)) (UniProt P0AE70)
# Experiment: activators of E. coli MazEF toxin-antitoxin RNase, primary screen, biochemical, fluorescence, uHTS (AID 504720)
# Settings: FAM/BHQ RNA-DNA oligo cleavage fluorescence, 5 h, at 20 µM, hits give high values
row,SMILES,activation
1,COc1ccccc1OP(C)(=O)Nc1ccc(Br)cc1 (stereo not given),inactive: 3.28%
2,COc1ccc(OP(C)(=O)Nc2ccccn2)cc1 (stereo not given),inactive: -9.34%
3,CN(C)CCOC(=O)C(O)(c1ccccc1)C1CCCC1 (stereo not given),inactive: 3.87%
4,Cc1c(NP(C)(=O)Oc2ccc(C(C)C)cc2)c(=O)n(-c2ccccc2)n1C (stereo not given),inactive: 5.23%
5,O=[N+]([O-])c1cc([N+](=O)[O-])c(Nc2ccccn2)c([N+](=O)[O-])c1,inactive: 5.33%
6,CP(=O)(Nc1ccccn1)Oc1ccccc1 (stereo not given),inactive: -4.76%
7,COc1ccccc1OP(C)(=O)Nc1ccc(C)cc1C (stereo not given),inactive: 3.76%
8,CCc1ccc(OP(C)(=O)O)cc1,inactive: -5.13%
9,O=C1C(O)=C([N+](=O)[O-])C(=O)C(O)=C1[N+](=O)[O-],inactive: 1.23%
10,Cc1cc(C)cc(OP(C)(=O)Nc2cccc(C(F)(F)F)c2)c1 (stereo not given),inactive: -7.2%
11,COc1ccccc1OP(C)(=O)Nc1ccc(C)c(C)c1 (stereo not given),inactive: 3.67%
12,COc1ccc(OP(C)(=O)Nc2ccccc2Br)cc1 (stereo not given),inactive: 9.22%
13,CCCCCCCCCCCCCCCC1C[N+](C)(C)CCOP(C)(=O)O1 (stereo not given),inactive: -28.8%
14,CP(=O)(Nc1ccc(Cl)cc1Cl)Oc1ccccc1 (stereo not given),inactive: 1.95%
15,CP(=O)(OCCOc1ccccc1)OCCOc1ccccc1,inactive: -2.55%
16,Nc1ccc2c(ccc3cccnc32)n1.O=[N+]([O-])c1cc([N+](=O)[O-])c(O)c([N+](=O)[O-])c1,inactive: 0.025%
17,CCOC(=O)c1ccc(NP(C)(=O)Oc2ccc(Cl)cc2)cc1 (stereo not given),inactive: -2.88%
18,CP(=O)(OC12CC3CC(CC(C3)C1)C2)OC12CC3CC(CC(C3)C1)C2,inactive: -2.4%
19,CCN(CC)CC(O)COC(=O)C(O)(c1ccccc1)C1CCCCC1 (stereo not given),inactive: -0.849%
20,COc1ccc(OP(C)(=O)Nc2ccc(Br)cc2)cc1 (stereo not given),inactive: -0.483%
21,COc1ccccc1OP(C)(=O)Nc1c(C)n(C)n(-c2ccccc2)c1=O (stereo not given),inactive: 0.59%
22,O=C(OCCCN1CCCC1)C(O)(c1ccccc1)C1CCCCC1 (stereo not given),inactive: -1.08%
23,CP(=O)(Oc1ccccc1)N1CCOC1=O (stereo not given),inactive: 5.23%
24,CCc1ccc(OP(C)(=O)Nc2cccnc2)cc1 (stereo not given),inactive: 0.751%

row,SMILES,activation
1,COc1ccccc1OP(C)(=O)Nc1ccccc1Br (stereo not given),inactive: -0.837%
2,CC(C)(C)c1ccc(OP(C)(=O)O)cc1,inactive: -5.08%
3,CP(=O)(Nc1ccc(Cl)cc1)Oc1ccc(F)cc1 (stereo not given),inactive: -8.51%
4,CN(C)C(=O)c1c([N+](=O)[O-])cc([N+](=O)[O-])cc1[N+](=O)[O-],inactive: -13.9%
5,CP(=O)(Nc1ccc(SC(F)(F)F)cc1)Oc1ccc(F)cc1 (stereo not given),inactive: -15.1%
6,CCOP(C)(=S)SCC(=O)NC(C)(CC)C(=O)O (stereo not given),inactive: -0.38%
7,CP(=O)(Nc1ccc2c(c1)OCCO2)Oc1ccccc1 (stereo not given),inactive: -2.09%
8,Cc1ccccc1NP(C)(=O)Nc1ccccc1C,inactive: -9.33%
9,COc1ccc(OP(C)(=O)Nc2cccc(Br)c2)cc1 (stereo not given),inactive: 4.08%
10,CN(C)CCOC(=O)C(O)(c1ccccc1)C1CCCCC1 (stereo not given),inactive: 2.34%
11,COc1ccc(NP(C)(=O)Oc2ccccc2OC)cc1 (stereo not given),inactive: 1.48%
12,O=[N+]([O-])c1ccc(OP2(=O)COCCO2)cc1 (stereo not given),inactive: 2.36%
13,O=[N+]([O-])c1cc([N+](=O)[O-])c(NCC2CCS(=O)(=O)C2)c([N+](=O)[O-])c1 (stereo not given),inactive: -0.625%
14,Cc1cc(-c2cccc3ccccc23)c(C)cn1.O=[N+]([O-])c1cc([N+](=O)[O-])c(O)c([N+](=O)[O-])c1,inactive: -11.3%
15,Cc1c(C(c2ccc3c(c2)OCO3)c2c(C)n(C)n(-c3ccccc3)c2=O)c(=O)n(-c2ccccc2)n1C.O=[N+]([O-])c1cc([N+](=O)[O-])c(O)c([N+](=O)[O-])c1,inactive: -15.2%
16,CCOC(=O)c1ccc(NP(C)(=O)Oc2ccc(F)cc2)cc1 (stereo not given),inactive: 4.55%
17,COc1ccc(OP(C)(=O)Nc2ccc(SC(F)(F)F)cc2)cc1 (stereo not given),inactive: 7.02%
18,Cc1c([N+](=O)[O-])cc([N+](=O)[O-])c(Br)c1[N+](=O)[O-],inactive: -3%
19,CCN(CC)CCCOC(=O)C(O)(c1ccccc1)C1CCCCC1 (stereo not given),inactive: -1.02%
20,CP(=O)(Nc1ccccc1)Oc1ccc(F)cc1 (stereo not given),inactive: 2.31%
21,CCCCCOc1ccc(NP(C)(=O)Oc2ccc(Cl)cc2Cl)cc1 (stereo not given),inactive: -13.4%
22,O=[N+]([O-])c1cc([N+](=O)[O-])c(OC2CCCCC2O)c([N+](=O)[O-])c1 (stereo not given),inactive: -5.19%
23,O=[N+]([O-])c1cc([N+](=O)[O-])c(Nc2ccc(Cl)cc2)c([N+](=O)[O-])c1,inactive: 8.31%
24,CP(=O)(Nc1ccccc1F)Oc1ccccc1 (stereo not given),inactive: -14.3%

row,SMILES,activation
1,CC(C)c1ccc(OP(C)(=O)Nc2ccc(SC(F)(F)F)cc2)cc1 (stereo not given),inactive: 2.66%
2,O=C(OC1CN2CCC1CC2)c1ccc([N+](=O)[O-])cc1 (stereo not given),inactive: 2.98%
3,O=C(OCCN1CCN(CCOCc2ccccc2)CC1)C(O)(c1ccccc1)c1ccccc1,inactive: 0.15%
4,COc1ccc2c(c1O)-c1c(O)c(OC)cc3c1[C@H](C2)[N+](C)(C)CC3.O=[N+]([O-])c1cc([N+](=O)[O-])c([O-])c([N+](=O)[O-])c1[O-],inactive: 1.44%
5,COc1ccccc1OP(C)(=O)Nc1cccc(Br)c1 (stereo not given),inactive: 11.6%
6,CCOC(=O)c1ccc(NP(C)(=O)Oc2cc(C)cc(C)c2)cc1 (stereo not given),inactive: -10.1%
7,Cc1cc(C)cc(OP(C)(=O)Nc2ccc(C)cc2C)c1 (stereo not given),inactive: -1.84%
8,Cc1ccc(C)c(NP(C)(=O)Oc2ccccc2)c1 (stereo not given),inactive: 3.71%
9,Cc1cc(C)cc(OP(C)(=O)Nc2ccccn2)c1 (stereo not given),inactive: -0.565%
10,CP(=O)(Nc1cccc(Br)c1)Oc1ccccc1 (stereo not given),inactive: -3.71%
11,O=C(O)c1cccc(Nc2c([N+](=O)[O-])cc([N+](=O)[O-])cc2[N+](=O)[O-])c1,inactive: -2.08%
12,CC1=NCCc2c1[nH]c1ccccc21.O=[N+]([O-])c1cc([N+](=O)[O-])c(O)c([N+](=O)[O-])c1,inactive: -5.97%
13,CC1=C2N=C(C=C3N=C(C(C)=C4[N-][C@@](C)([C@@H]5N=C1[C@](C)(CCC(=O)NC[C@@H](C)OP(=O)([O-])O[C@H]1[C@@H](O)[C@@H](n6cnc7cc(C)c(C)cc76)O[C@@H]1CO)[C@H]5CC(N)=O)[C@@](C)(CC(N)=O)[C@@H]4CCC(N)=O)[C@@](C)(CC(N)=O)[C@@H]3CCC(N)=O)C(C)(C)[C@@H]2CCC(N)=O.[C-]#N.[Co+3],inactive: -32%
14,O=[N+]([O-])c1cc([N+](=O)[O-])c(Nc2nnnn2CCO)c([N+](=O)[O-])c1,inactive: -1.41%
15,CCOC(=O)C(CC)C1=NC(C)(C)Cc2ccccc21.O=[N+]([O-])c1cc([N+](=O)[O-])c(O)c([N+](=O)[O-])c1 (stereo not given),inactive: 1.24%
16,CN1CCCCC1COC(=O)C1(O)c2ccccc2CCc2ccccc21 (stereo not given),inactive: -4.25%
17,COc1ccccc1OP(C)(=O)Nc1c(C)cccc1C (stereo not given),inactive: 6.06%
18,CCCOc1ccc(NP(C)(=O)Oc2ccc(Cl)cc2)cc1 (stereo not given),inactive: 5.5%
19,CP(=O)(Nc1ccc(SC(F)(F)F)cc1)Oc1ccccc1 (stereo not given),inactive: -3.78%
20,O=[N+]([O-])c1cc([N+](=O)[O-])c(-n2nnc3ccccc32)c([N+](=O)[O-])c1,inactive: 0.227%
21,O=[N+]([O-])c1cc([N+](=O)[O-])c(-c2cnn(-c3ccccc3)c2)c([N+](=O)[O-])c1,inactive: 2.98%
22,Cc1nc2ccc3ccccc3c2s1.O=[N+]([O-])c1cc([N+](=O)[O-])c(O)c([N+](=O)[O-])c1,inactive: -1.87%
23,CP(=O)(Nc1ccc(SC(F)(F)F)cc1)Oc1ccc(Cl)cc1 (stereo not given),inactive: 0.952%
24,Cc1cccc(C)c1OP(C)(=O)Nc1ccc(SC(F)(F)F)cc1 (stereo not given),inactive: -5.02%

row,SMILES,activation
1,Cc1ccc(Nc2c([N+](=O)[O-])cc([N+](=O)[O-])cc2[N+](=O)[O-])cc1,inactive: 7.99%
2,CP(=O)(Oc1ccccc1)OC(c1ccccc1)C(F)(F)F (stereo not given),inactive: 14.4%
3,CP(=O)(NC(=O)Nc1ccccc1)Oc1ccccc1 (stereo not given),inactive: -6.65%
4,CCc1ccc(OP(C)(=O)N2CCN(c3ccc([N+](=O)[O-])cc3)CC2)cc1 (stereo not given),inactive: 7.2%
5,Cc1cc(C)cc(OP(C)(=O)Nc2ccc(SC(F)(F)F)cc2)c1 (stereo not given),inactive: 2.71%
6,O=[N+]([O-])c1cc([N+](=O)[O-])c(O)c([N+](=O)[O-])c1.c1ccc(Oc2ccncc2)cc1,inactive: 11.4%
7,CCOC(=O)c1ccc(NP(C)(=O)Oc2ccc(OC)cc2)cc1 (stereo not given),inactive: -3.51%
8,CCOP(C)(=S)SCC(=O)NC(C)C(=O)O (stereo not given),inactive: 2.9%
9,CP(=O)(Nc1ccccn1)Oc1ccc(Cl)cc1 (stereo not given),inactive: -8.19%
10,CP(=S)(Nn1cnnc1)Oc1ccccc1 (stereo not given),inactive: -2.03%
11,CP(=O)(Nc1ccccc1Br)Oc1ccccc1 (stereo not given),inactive: 1.32%
12,COc1ccccc1OP(C)(=O)Nc1ccccc1 (stereo not given),inactive: 9.3%
13,O=[N+]([O-])c1cc([N+](=O)[O-])c(Nc2cccnc2)c([N+](=O)[O-])c1,inactive: 3.95%
14,O=[N+]([O-])c1ccc2c(c1)C=Nc1ccccc1O2,inactive: 0.438%
15,CC(C)(C)c1ccc(OP(C)(=O)Nc2ccc(SC(F)(F)F)cc2)cc1 (stereo not given),inactive: -6.16%
16,Cc1cccc(C)c1OP(C)(N)=O (stereo not given),inactive: 4.79%
17,COc1ccccc1OP(C)(=O)Nc1ccc(C)cc1 (stereo not given),inactive: -4.33%
18,Cc1ccc(NP(C)(=O)Oc2ccccc2)c(C)c1 (stereo not given),inactive: 2.22%
19,CCOC(=O)c1ccc(NP(C)(=O)Oc2ccccc2)cc1 (stereo not given),inactive: 3.84%
20,Cc1cc(C)cc(OP(C)(N)=O)c1 (stereo not given),inactive: -13.8%
21,COc1ccccc1OP(C)(=O)Nc1cc(Cl)ccc1C (stereo not given),inactive: -0.08%
22,COc1ccc(OP(C)(=O)Nc2cccc(F)c2)cc1 (stereo not given),inactive: 7.54%
23,CCN(CC)CCCOC(=O)C(O)(c1ccccc1)c1ccccc1,inactive: 8.7%
